Pooled drug test results. Numbers come from NIAID ChemDB, via PubChem.

All rows: enzyme or target tests; organism: HIV-1; target: Protease; measure: IC50

Rows are shuffled and stem from different studies. Blank or dashed fields: not listed here. ICn: concentration for n% inhibition.

COC(=O)[C@]12CCC(C)(C)CC1C1=CCC3[C@@]4(C)CC[C@H](N)C(C)(C)C4CC[C@@]3(C)[C@]1(C)CC2 ; read by: HPLC ; result: >20 µM
CC(=O)N(CC[C@@H](O)[C@H](Cc1ccccc1)NC(=O)c1cccc(O)c1C)[C@@H](Cc1ccc(Cl)cc1)C(=O)NC(C)(C)C ; result: 2.5 µM
CC(=O)ONc1ccc(S(=O)(=O)N(CC(C)C)C[C@@H](O)[C@H](Cc2ccccc2)NC(=O)[C@H](C(C)C)N2C(=O)c3ccccc3C2=O)cc1 ; result: 0.016 µM
CC(C)(CC(=O)O)CC(=O)O[C@H]1CC[C@@]2(C)C(CC[C@]3(C)C2CC=C2C4CC(C)(C)CC[C@]4(C(=O)O)CC[C@]23C)C1(C)C ; read by: HPLC ; result: 3.8 µM
Cc1cc([N+](=O)[O-])cc(C)c1OCC(=O)N[C@@H](Cc1ccccc1)C[C@H](O)[C@H](Cc1ccccc1)NC(=O)OC1CO[C@H]2OCC[C@@H]12 ; result: <0.0005 µM
Cc1ccc(S(=O)(=O)N(C)CC[C@@H](O)[C@H](Cc2ccccc2)NC(=O)c2cccc(O)c2C)cc1 ; result: 1.3 µM
CN(C)CCNC(=O)C(NC(=O)Cc1ccccc1)[C@@H]1N[C@@H](C(=O)NCCNC(=O)[C@@H]2N[C@@H](C(NC(=O)Cc3ccccc3)C(=O)NCc3ccccc3)SC2(C)C)C(C)(C)S1 ; result: 0.0085 µM
CC[C@@H](C)[C@H](NC(=O)C1CCCN1C(=O)[C@@H](OC)[C@H](Cc1ccccc1)NC(=O)[C@H](CC(N)=O)NC(=O)CCc1ccccc1)C(=O)N[C@H](C(N)=O)C(C)C ; result: >5 µM
Cc1cccc(C)c1OCC(=O)N[C@@H](Cc1ccccc1)C[C@H](O)[C@H](Cc1ccccc1)NC(=O)O[C@H]1CO[C@H]2OCC[C@H]21 ; result: <0.0005 µM
CC(=O)N(CC[C@@H](O)[C@H](Cc1ccc2ccccc2c1)NC(=O)c1cccc(O)c1C)[C@@H](Cc1ccccc1)C(=O)NC(C)(C)C ; result: 0.041 µM
O=C(NC(CO)NC(=O)[C@H](CC1CCCCC1)NC(=O)OCc1ccccc1)OCc1ccccc1 ; read by: substrate cleavage ; result: >5 µM
CC(=O)N(CCC(O)[C@H](Cc1ccccc1)NC(=O)OC(C)(C)C)[C@@H](Cc1ccccc1)C(=O)NC(C)(C)C ; result: 0.5 µM
CC(C)CN(C[C@@H](O)[C@H](Cc1ccccc1)NC(=O)COc1ccc2ccccc2c1)S(=O)(=O)c1ccc(Br)cc1 ; result: 0.04 µM
CC(=O)N(CC[C@@H](O)[C@H](Cc1ccccc1)NC(=O)c1cccc(O)c1C)[C@@H](Cc1ccc(O)cc1)C(=O)NC(C)(C)C ; result: >100 µM
CC(C)(C)NC(=O)[C@@H]1CSCN1C(=O)[C@@H](O)[C@H](Cc1ccccc1)NC(=O)[C@@H](NC(=O)COc1cccc2ccccc12)c1ccccc1 ; result: ~0.05 µM
CC(=O)ONc1ccc(S(=O)(=O)N(Cc2ccccc2)C[C@@H](O)[C@H](Cc2ccccc2)NC(=O)[C@H](C(C)C)N2C(=O)c3ccccc3C2=O)cc1 ; result: 0.057 µM
CC(C)(C)NC(=O)[C@H]1N(C(=O)[C@@H](O)[C@H](Cc2ccccc2)NC(=O)[C@H](CS(C)(=O)=O)NC(=O)COc2cccc3ccccc23)CCC1(C)C ; result: <0.05 µM
COC(=O)[C@]12CCC(C)(C)C[C@H]1C1=CC[C@@H]3[C@@]4(C)CC[C@H](O)C(C)(C)[C@@H]4CC[C@@]3(C)[C@]1(C)CC2 ; read by: HPLC ; result: 20 µM
O=C(NC(CO)NC(=O)[C@@H]1Cc2ccccc2CN1C(=O)OCc1ccccc1)[C@@H]1Cc2ccccc2CN1C(=O)OCc1ccccc1 ; read by: substrate cleavage ; result: 0.85 µM
CCCCCC(=O)O[C@H]1CC[C@@]2(C)C(CC[C@]3(C)C2CC=C2C4CC(C)(C)CC[C@]4(C(=O)O)CC[C@]23C)C1(C)C ; read by: HPLC ; result: >20 µM
CC(C)[C@H](NC(=O)Oc1ccccc1)C(=O)N[C@@H](Cc1ccccc1)[C@@H](O)[C@H](O)[C@H](Cc1ccccc1)NC(=O)[C@@H](NC(=O)[C@H](C)NC(=O)Oc1ccccc1)C(C)C ; result: 0.017 µM
Cc1cc(OCCN2CCOCC2)cc(C)c1OCC(=O)N[C@@H](Cc1ccccc1)C[C@H](O)[C@H](Cc1ccccc1)NC(=O)O[C@H]1CO[C@H]2OCC[C@H]21 ; result: <0.0005 µM
CC1(C)CC2C3=CCC4[C@@]5(C)CC[C@H](OC(=O)CCCCC(=O)O)C(C)(C)C5CC[C@@]4(C)[C@]3(C)CC[C@@]2(C)[C@H](OC(=O)CCCCC(=O)O)C1 ; read by: HPLC ; result: 2.3 µM
CC(=O)N(CC[C@@H](O)[C@H](Cc1ccc(-c2ccccc2)cc1)NC(=O)c1cccc(O)c1C)[C@@H](Cc1ccccc1)C(=O)NC(C)(C)C ; result: 0.029 µM
CC(C)[C@H](NC(=O)[C@H](C)NC(=O)c1cccnc1)C(=O)N[C@@H](Cc1ccccc1)C(O)C(O)[C@H](Cc1ccccc1)NC(=O)[C@@H](NC(=O)[C@H](C)NC(=O)c1cccnc1)C(C)C ; changes: PR-V82F ; result: 0.043 µM
CC(C)CNC(=O)[C@H](Cc1ccccc1)NC(=O)[C@H](O)[C@H](Cc1ccccc1)NC(=O)[C@@H](NC(=O)OCc1ccccc1)C(C)C ; result: >5 µM
CC(=O)N(CC[C@@H](O)[C@H](Cc1ccccc1)NC(=O)c1cccc(O)c1C)[C@@H](Cc1ccccc1)C(=O)N1CCCC1 ; result: 5 µM
CC1(C)S[C@H]([C@H](NC(=O)Cc2ccccc2)C(=O)NCc2ccccc2)N[C@H]1C(=O)NCCNC(=O)[C@@H]1N[C@@H]([C@H](NC(=O)Cc2ccccc2)C(=O)NCc2ccc(C(=O)O)cc2)SC1(C)C ; result: 0.0045 µM
Cc1cc(N2COCC2=O)cc(C)c1OCC(=O)N[C@@H](Cc1ccccc1)C[C@H](O)[C@H](Cc1ccccc1)NC(=O)O[C@H]1CO[C@H]2OCC[C@H]21 ; result: <0.0005 µM
Cc1ccc(S(=O)(=O)N[C@@H](C)C(=O)N[C@H](C(=O)N[C@@H](Cc2ccccc2)[C@@H](O)[C@H](O)[C@H](Cc2ccccc2)NC(=O)[C@@H](NC(=O)[C@H](C)NS(=O)(=O)c2ccc(C)cc2)C(C)C)C(C)C)cc1 ; result: 0.005 µM
Cc1cc(N)c(N)c(C)c1OCC(=O)N[C@@H](Cc1ccccc1)C[C@H](O)[C@H](Cc1ccccc1)NC(=O)O[C@H]1CO[C@H]2OCC[C@H]21 ; result: <0.0005 µM
Oc1cc(O)cc(Oc2c(O)cc3c(c2O)Oc2cc(Oc4c(O)cc(O)cc4O)c(O)c(O)c2O3)c1 ; read by: HPLC ; result: >100 µM
Cc1cc(N)cc(C)c1S(=O)CC(=O)N[C@@H](Cc1ccccc1)C[C@H](O)[C@H](Cc1ccccc1)NC(=O)O[C@H]1CO[C@H]2OCC[C@H]21 ; result: 0.031 µM
COC(=O)[C@]12CCC(C)(C)CC1C1=CCC3[C@@]4(C)CC[C@H](NC(=O)CCCCC(=O)NCCCC(=O)O)C(C)(C)C4CC[C@@]3(C)[C@]1(C)CC2 ; read by: HPLC ; result: 6 µM
Cc1c(O)cccc1C(=O)N[C@@H](Cc1ccccc1)[C@H](O)CCNCC(=O)NC(C)(C)C ; result: 16.9 µM
O=C(NC(CO)NC(=O)C1Cc2ccccc2CN1C(=O)OCc1ccccc1)OCc1ccccc1 ; read by: substrate cleavage ; result: 4.9 µM
CC(C)C(CO)NC(=O)[C@@H]1CSCN1C(=O)[C@@H](O)[C@H](Cc1ccccc1)NC(=O)[C@H](CS(C)(=O)=O)NC(=O)COc1cccc2ccccc12 ; result: <0.05 µM
CNN[C@H](C(=O)NC(=O)[C@H]1N(C(=O)[C@@H](O)[C@H](Cc2ccccc2)NC(=O)[C@@H](NC(=O)[C@H](Cc2ccccc2)NC(C)=O)C(C)C)CSC1(C)C)C(C)C ; result: 0.01 µM
O=C(NC(CO)NC(=O)C1Cc2ccccc2CN1C(=O)OCC1c2ccccc2-c2ccccc21)OCC1c2ccccc2-c2ccccc21 ; read by: substrate cleavage ; result: 4.1 µM
CC(=O)N[C@@H](Cc1c[nH]c2ccccc12)C(=O)N[C@H](C(=O)N[C@@H](Cc1ccccc1)[C@H](O)[C@@H](O)[C@H](Cc1ccccc1)NC(=O)[C@@H](NC(=O)[C@H](Cc1c[nH]c2ccccc12)NC(C)=O)C(C)C)C(C)C ; result: 0.012 µM
CC1(C)CC[C@]2(C(=O)NCCCCCC(=O)O)CC[C@]3(C)C(=CCC4[C@@]5(C)CC[C@H](O)C(C)(C)C5CC[C@]43C)C2C1 ; read by: HPLC ; result: 1.7 µM
CON[C@H](C(=O)NC(=O)[C@H]1N(C[C@@H](O)[C@H](Cc2ccccc2)NC(=O)[C@@H](NC(=O)[C@H](C)NC(=O)Oc2ccccc2)C(C)C)CSC1(C)C)C(C)C ; result: 0.015 µM
CC(=O)ONc1ccc(S(=O)(=O)N(Cc2ccccc2)C[C@@H](O)[C@H](Cc2ccccc2)NC(=O)CN2C(=O)c3ccccc3C2=O)cc1 ; result: 0.045 µM

6 of the rows above, restated:

compound	changes	read by	result
O=C(NC(CO)NC(=O)[C@@H]1Cc2ccccc2CN1C(=O)OCc1ccccc1)[C@@H]1Cc2ccccc2CN1C(=O)OCc1ccccc1	-	substrate cleavage	0.85 µM
CC(=O)N(CC[C@@H](O)[C@H](Cc1ccccc1)NC(=O)c1cccc(O)c1C)[C@@H](Cc1ccc(O)cc1)C(=O)NC(C)(C)C	-	-	>100 µM
CC(=O)ONc1ccc(S(=O)(=O)N(Cc2ccccc2)C[C@@H](O)[C@H](Cc2ccccc2)NC(=O)CN2C(=O)c3ccccc3C2=O)cc1	-	-	0.045 µM
CC(=O)ONc1ccc(S(=O)(=O)N(CC(C)C)C[C@@H](O)[C@H](Cc2ccccc2)NC(=O)[C@H](C(C)C)N2C(=O)c3ccccc3C2=O)cc1	-	-	0.016 µM
CC(C)C(CO)NC(=O)[C@@H]1CSCN1C(=O)[C@@H](O)[C@H](Cc1ccccc1)NC(=O)[C@H](CS(C)(=O)=O)NC(=O)COc1cccc2ccccc12	-	-	<0.05 µM
Cc1cc(OCCN2CCOCC2)cc(C)c1OCC(=O)N[C@@H](Cc1ccccc1)C[C@H](O)[C@H](Cc1ccccc1)NC(=O)O[C@H]1CO[C@H]2OCC[C@H]21	-	-	<0.0005 µM